Compound potency records, mixed from different reports. Data source: NIAID ChemDB in PubChem.

Shared fields: growth or infection tests; organism: HIV-2; endpoint: EC50

An empty or dashed field is not shown. Neighbouring rows are from separate reports. ECn: concentration that inhibits the pathogen or its effect by n%.

structure	method	strain or isolate	cell line	result
Cc1cn([C@H]2C[C@H](N=[N+]=[N-])[C@@H](CO)O2)c(=O)[nH]c1=O	cytopathic effect / XTT	MS	U-937	0.094 µg/mL
CN(C)c1ccc(NC2=NS(=O)(=O)NC(Cc3ccccc3)=C2)cc1	MTT	ROD	MT-4	>256 µM
Cc1cc(C#N)cc(C)c1Oc1ccc(N)c(NC2CCN(Cc3ccc(C(N)=O)cc3)CC2)n1	MTT	ROD	MT-4	>27 µM
Nc1nc(N)c2ncn(CC(OCCF)OCP(=O)(O)O)c2n1	cytopathic effect		CEM	40 µg/mL
Fc1cccc(F)c1C1SCc2nc3ccc(C(F)(F)F)cc3n21	cytopathic effect / MTT	ROD	MT-4	>351 µM
Cc1cn([C@H]2C[C@H](F)[C@@H](CO)O2)c(=O)[nH]c1=O	syncytia	ROD	CEM	0.001 µg/mL
O=c1[nH]c(=S)[nH]c2c1C(c1ccc(Cl)cc1)c1c([nH]c(=S)[nH]c1=O)O2	cytopathic effect	ROD	MT-4	>137 µM
Cc1cn([C@H]2C=C[C@@H](COP3(=O)OCc4cccc(CCC(=O)OC(C)(C)C)c4O3)O2)c(=O)[nH]c1=O	syncytia	LAV-2	CEM + CEM TK-	1.14 µM
CCCCc1c(Cc2cccc3ccccc23)nc(NCc2ccccc2)[nH]c1=O	MTT	ROD	MT-4	>39.75 µM
Cc1c(Cc2c(Cl)cccc2Cl)nc(SCc2cn(Cc3ccc(S(N)(=O)=O)cc3)nn2)[nH]c1=O	MTT	ROD		>95.49 µM
Cc1cn([C@H]2C[C@H](N=C(NC#N)Oc3ccccc3)[C@@H](CO)O2)c(=O)[nH]c1=O	cytopathic effect / MTT	ROD	CEM	35 µg/mL
COc1ccc2nc3n(c2c1)C(c1c(Cl)cccc1Cl)SC3	cytopathic effect / MTT	ROD	MT-4	>292 µM
Cc1c(Sc2ccccc2)n(COCCO)c(=O)[nH]c1=O	cytopathic effect / MTT	ROD	MT-4	>405.8 µM
Nc1ccn([C@H]2CC[C@@H](CO)O2)c(=O)n1	syncytia	ROD	CEM	0.04 µg/mL
Cc1c(Cc2cccc3ccccc23)nc(N2CC2)[nH]c1=O	MTT	ROD	MT-4	351 µM
Cc1cn([C@H]2C[C@@H](N=[N+]=[N-])[C@@H](CO)O2)c(=O)[nH]c1=O	MTT	ROD	MT-4	>0.006 µM
COc1ccc2c(c1)nc1n2C(c2c(Cl)cccc2Cl)SC1	cytopathic effect / MTT	ROD	MT-4	>1.7 µM
Cc1cc(C#N)cc(C)c1Oc1ccc([N+](=O)[O-])c(NC2CCN(Cc3ccncc3)CC2)n1	MTT	ROD	MT-4	>6.7 µM
Cc1cc(C)c(NC2=NS(=O)(=O)NC(Cc3ccccc3)=C2)c(C)c1	MTT	ROD	MT-4	>191 µM
Cc1cn([C@H]2C[C@H](N=[N+]=[N-])[C@@H](CO)O2)c(=O)[nH]c1=O	cytopathic effect / XTT	ROD	CEM + CEM-SS	0.0009 µM
Cc1cn([C@@H]2O[C@@H](COC(=O)c3ccccc3)C3(OS(=O)(=O)C=C3N)C2O[Si](C)(C)C(C)(C)C)c(=O)[nH]c1=O	syncytia	ROD	CEM	>100 µg/mL
CCCCCCCSc1nsc(NC(=O)Nc2ccccc2)n1	cytopathic effect	EHO	MT-4	3.7 µM
Cc1cc(C#N)cc(C)c1Oc1ccc([N+](=O)[O-])c(NC2CCN(Cc3ccc(C(N)=O)cc3)CC2)n1	MTT	ROD	MT-4	>27 µM
Cc1cn([C@H]2CC[C@H](O)[C@H]2CO)c(=O)[nH]c1=O			CEM + CEM/0	26 µM
CC(C)[C@H](NC(=O)c1ccc2ccccc2n1)C(=O)N[C@@H](Cc1ccccc1)[C@H](O)CN1CC[C@@H](OCc2ccncc2)C[C@H]1C(=O)NC(C)(C)C	p24 / ELISA / antigen	ROD	C8166	0.03 µM
Cc1cn([C@H]2C=C[C@@H](CO)O2)c(=O)[nH]c1=O	syncytia	LAV-2	CEM + CEM/O	0.24 µM
Cc1cn([C@H]2C[C@H](N=[N+]=[N-])[C@@H](CO)O2)c(=O)[nH]c1=O		EHO	MT-2	0.011 µM
CCCc1cc(=O)oc2c3c(c4c(c12)OC(C)(C)C=C4)O[C@@H](C)[C@H](C)[C@@H]3O	XTT	ROD	CEM + CEM-SS	>10 µM
COc1ccc(CN=C2C=C(Cc3ccccc3)NS(=O)(=O)N2)cc1	MTT	ROD	MT-4	>300 µM
O=c1[nH]cnc2c1ncn2[C@H]1CC[C@@H](CO)O1	MTT	ROD	MT-4	19 µM
COc1ccc(CCN=C2C=C(Cc3ccc4ccccc4c3)NS(=O)(=O)N2)cc1	MTT	ROD	MT-4	>159 µM
Cc1cn([C@H]2C[C@H](N=[N+]=[N-])[C@@H](CO)O2)c(=O)[nH]c1=O	XTT	ROD	CEM + CEM-SS	0.005 µM
Cc1cc(C)c(Oc2ccc([N+](=O)[O-])c(NC3CCN(Cc4ccc(S(C)(=O)=O)cc4)CC3)n2)c(C)c1	MTT	ROD	MT-4	>24 µM
N#Cc1ccc(NC2=NS(=O)(=O)NC(Cc3cccc4ccccc34)=C2)cc1	MTT	ROD	MT-4	>254 µM
CCc1c(Sc2cccc3ccccc23)nc(SCC(=O)c2ccc(F)cc2F)[nH]c1=O	cytopathic effect / MTT	ROD	MT-4	>31.2 µM
CC(C)[C@H](NC(=O)c1ccc2ccccc2n1)C(=O)N[C@@H](Cc1ccccc1)[C@H](O)CN1CC[C@@H](OCc2ccncc2)C[C@H]1C(=O)NC(C)(C)C	p24	ROD	PBMC	0.008 µM
Cc1cccc2c1OP(=O)(OC[C@@H]1[C@@H](O)CC[C@@H]1n1cc(C)c(=O)[nH]c1=O)OC2			CEM + CEM/0	37.5 µM
COc1nc(=O)[nH]c2c1C(c1ccc(Cl)cc1)c1c(OC)nc(=O)[nH]c1O2	cytopathic effect	ROD	MT-4	>347 µM
O=C(c1ccccc1)c1ccc2nc3n(c2c1)C(c1c(Cl)cccc1Cl)SC3	cytopathic effect / MTT	ROD	MT-4	>1.3 µM
Cc1cc(NC2=NS(=O)(=O)NC(Cc3ccccc3)=C2)ccc1Cl	MTT	ROD	MT-4	>179 µM
Cc1cc(C)c(Nc2ccc([N+](=O)[O-])c(NC3CCN(Cc4ccc(S(N)(=O)=O)cc4)CC3)n2)c(C)c1	MTT	ROD	MT-4	>14 µM
CCc1c(Cc2cccc3ccccc23)nc(NCc2ccc(F)cc2)[nH]c1=O	MTT	ROD	MT-4	>31.44 µM
CC(C)c1cc2c(c(O)c1O)[C@@]1(C(=O)O)CCCC(C)(C)C1CC2		ROD	MT-2	0.014 µM
Cc1cccc2c1OP(=O)(OC[C@H]1C[C@H](n3cc(C)c(=O)[nH]c3=O)C[C@@H]1O)OC2			CEM + CEM/0	23.3 µM
CC(=O)O[C@@H]1[C@H](n2cc(C)c(=O)[nH]c2=O)O[C@@H](COC(=O)c2ccccc2)C12OS(=O)(=O)C=C2N	cytopathic effect / trypan blue	ROD	MT-4	>100 µg/mL
Cc1ccnc2c1NC(=O)c1cccnc1N2C1CC1	XTT	ROD	CEM + CEM-SS	>38 µM
CC(C)(C)C(=O)OCOP(=O)(COCCn1cnc2c(N)ncnc21)OCOC(=O)C(C)(C)C	cytopathic effect / MTT		CEM	0.25 µM
Cc1ccnc2c1NC(=O)c1cccnc1N2C1CC1	cytopathic effect	ROD	MT-4	>97.6 µM
Cc1cn([C@H]2C=C[C@@H](CO)O2)c(=O)[nH]c1=O			CEM + CEM/0	0.35 µM
CCCCNc1nc(Cc2cccc3ccccc23)c(CC)c(=O)[nH]1	MTT	ROD	MT-4	>33.3 µM
Cc1cn([C@H]2C[C@H](NC(N)=O)[C@@H](CO)O2)c(=O)[nH]c1=O	cytopathic effect / MTT	ROD	CEM	>100 µg/mL
Cc1c(Cc2cccc3ccccc23)nc(NC2CCCCC2)[nH]c1=O	MTT	ROD	MT-4	>42.6 µM
O=c1[nH]c(SCc2cn(Cc3ccc(F)cc3)nn2)nc(Cc2c(Cl)cccc2Cl)c1I	MTT	ROD		>92.05 µM
Cc1cn([C@H]2C=C[C@@H](COP3(=O)OCc4cccc(CCC(=O)OCc5ccccc5)c4O3)O2)c(=O)[nH]c1=O	syncytia	LAV-2	CEM + CEM TK-	2.89 µM
O=S1(=O)N=C(Nc2ccccc2Cl)C=C(Cc2cccc3ccccc23)N1	MTT	ROD	MT-4	>154 µM
Cc1cc(C#N)cc(C)c1Oc1ccc([N+](=O)[O-])c(NC2CCN(Cc3ccc(S(C)(=O)=O)cc3)CC2)n1	MTT	ROD	MT-4	>146 µM
CC(=O)O[C@@]12C[C@@H](C)[C@@]3(O)[C@@H](C=C(CO)C[C@]4(O)C(=O)C(C)=C[C@@H]34)[C@@H]1C2(C)C	cytopathic effect / MTT	ROD	MT-4	0.02 µg/mL
COc1ccc(Cn2cc(CSc3nc(Cc4c(Cl)cccc4Cl)c(I)c(=O)[nH]3)nn2)cc1	MTT	ROD		>75.91 µM
Cc1cn([C@@H]2O[C@H](CO[Si](C)(C)C(C)(C)C)[C@@]3(OS(=O)(=O)C=C3N)[C@H]2O[Si](C)(C)C(C)(C)C)c(=O)[nH]c1=O	syncytia	ROD	CEM	>4 µg/mL
Cc1cn([C@H]2C[C@H](N=[N+]=[N-])[C@@H](CO)O2)c(=O)[nH]c1=O	cytopathic effect / XTT	MS	CEM + CEM-SS	0.007 µM
Cc1cn([C@@H]2O[C@H](CC3CCCCC3)C3(OS(=O)(=O)C=C3N)[C@H]2O[Si](C)(C)C(C)(C)C)c(=O)[nH]c1=O	syncytia	ROD	CEM	>4 µg/mL
CCc1c(Sc2cccc3ccccc23)nc(SCC(=O)c2ccccc2)[nH]c1=O	cytopathic effect / MTT	ROD	MT-4	>26.39 µM
N#Cc1ccc(Cn2cc(CSc3nc(Cc4c(Cl)cccc4Cl)cc(=O)[nH]3)nn2)cc1	MTT	ROD		>133 µM

The last 4 rows once more:

structure	method	strain or isolate	cell line	result
Cc1cn([C@H]2C[C@H](N=[N+]=[N-])[C@@H](CO)O2)c(=O)[nH]c1=O	cytopathic effect / XTT	MS	CEM + CEM-SS	0.007 µM
Cc1cn([C@@H]2O[C@H](CC3CCCCC3)C3(OS(=O)(=O)C=C3N)[C@H]2O[Si](C)(C)C(C)(C)C)c(=O)[nH]c1=O	syncytia	ROD	CEM	>4 µg/mL
CCc1c(Sc2cccc3ccccc23)nc(SCC(=O)c2ccccc2)[nH]c1=O	cytopathic effect / MTT	ROD	MT-4	>26.39 µM
N#Cc1ccc(Cn2cc(CSc3nc(Cc4c(Cl)cccc4Cl)cc(=O)[nH]3)nn2)cc1	MTT	ROD		>133 µM